A mixed list of measured activities; the numbers were collected in NIAID ChemDB.

Common to all: tests in culture; agent: HIV-1; method: cytopathic effect / MTT; endpoint: EC50

Blank or dashed fields: not listed here. ECn: concentration that inhibits the pathogen or its effect by n%. Neighbouring rows are from separate reports.

compound,conditions,changes,strain or isolate,cell line,result
Nc1nc(=O)n([C@@H]2CC[C@H](CO)O2)cc1F,,,IIIB,MT-2,0.45 µM
c1cnc2c(c1)cc(CN1CCCNCCNCCCNCC1)c1cccnc12,4 d,,IIIB,MT-4,2.23 µM
CCN1C(c2c(Cl)cccc2Cl)c2cccn2-c2ccc(Cl)cc2S1(=O)=O,,,IIIB,MT-4,>4.8 µM
C1CNCCNCCCN(CCCN2CCCNCCNCCCNCC2)CCNC1,,,RF,MT-4,0.37 µM
Nc1nc2c(ncn2[C@H]2C=C[C@@H](CO)O2)c(=O)[nH]1,,,IIIB,MT-2,4.5 µM
Cc1c(O)cccc1C(=O)N[C@@H](CSc1ccccc1)[C@H](O)CN1C[C@H]2CCCC[C@H]2C[C@H]1C(=O)NC(C)(C)CO,,,IIIB,MT-2,0.0856 µM
Nc1cccc2c1nc(-c1c(F)cccc1F)n2Cc1c(F)cccc1F,,RT-L74V,,MT-4,0.3 µM
C1CNCCNCCCN(CCN2CCCNCCNCCCNCC2)CCNC1,,,IIIB,MT-4,18.6 µM
Fc1cccc(F)c1Cn1c(-c2c(F)cccc2F)nc2c(Br)cccc21,,RT-Y188C,,MT-4,3.4 µM
Nc1nc(NC2CC2)c2ncn([C@H]3C=C[C@@H](CO)O3)c2n1,,,IIIB,MT-2,11 µM
Clc1cccc(/C=N/c2nccs2)c1,,,IIIB,MT-4,>100 µM
OC1/C(=C/c2ccc(Cl)c(Cl)c2)COC/C1=C\c1ccc(Cl)c(Cl)c1,,,,MT-4,>165 µM
CC(C)CN(C[C@@H](O)[C@H](Cc1ccccc1)NC(=O)O[C@H]1CCOC1)S(=O)(=O)c1ccc(N)cc1,,,IIIB,MT-4,0.12 µM
CCc1cccc2c1nc(-c1c(F)cccc1F)n2Cc1c(F)cccc1F,,RT-K101E,,MT-4,2.82 µM
O=C1/C(=C/c2ccc(Cl)c(Cl)c2)COC/C1=C\c1ccc(Cl)c(Cl)c1,,,,MT-4,>200 µM
Nc1nc(=O)n([C@@H]2CS[C@H](CO)O2)cc1F,,,IIIB,MT-2,0.6 µM
COC(=O)N[C@H](C(=O)N[C@@H](Cc1ccccc1)[C@@H](O)CN(Cc1ccc(-c2ccccn2)cc1)NC(=O)[C@@H](NC(=O)OC)C(C)(C)C)C(C)(C)C,,,IIIB,MT-4,0.008 µM
CC(=O)Nc1cccc2c1nc(-c1c(F)cccc1F)n2Cc1c(F)cccc1F,,RT-V106A,,MT-4,>20 µM
CCN1C/C(=C\c2ccc(O)c(O)c2)C(=O)/C(=C/c2ccc(O)c(O)c2)C1,,,,MT-4,>5 µM
Cc1c(Sc2ccccc2)n(COCCO)c(=O)[nH]c1=O,,,IIIB,MT-2,20.1 µM
Cc1cn([C@H]2C[C@H](N=[N+]=[N-])[C@@H](CO)O2)c(=O)[nH]c1=O,,,IIIB,MT-4,0.0041 µM
NCC(=O)Nc1ccc(Cl)cc1C(=O)c1ccc[nH]1,,,IIIB,MOLT-4,0.62 µg/mL
CCCCNc1nc(N)nc2c1ncn2CCOCP(=O)(O)O,,,IIIB,CEM,2 µg/mL
Cc1ccc2snc(N=Cc3ccccc3Cl)c2c1,,,IIIB,MT-4,>8 µM
CCCN(C)c1nc(N)nc2c1[nH]c[n+]2C[C@@H](C)OCP(=O)(O)O,,,IIIB,CEM,5.5 ± 2.1 µg/mL
Cc1cccc(C)c1OCC(=O)N[C@@H](Cc1ccccc1)[C@@H](O)C[C@H](Cc1ccccc1)NC(=O)[C@H](C(C)C)N1CCCNC1=O,,,IIIB,MT-4,0.033 µM
CN1C/C(=C\c2cc(O)c(O)c(O)c2)C(=O)/C(=C/c2cc(O)c(O)c(O)c2)C1,,,,MT-4,>46 µM
CC(C)=CCN1C(C)C(=O)N(C(C)C)c2ccc(Cl)cc2S1(=O)=O,,,IIIB,MT-4,>56 µM
COC(=O)c1cccc2c1nc(-c1c(F)cccc1F)n2Cc1c(F)cccc1F,,RT-Y188H,,MT-4,0.26 µM
O=C1/C(=C/c2ccc(O)c(O)c2)CC(C(=O)O)C/C1=C\c1ccc(O)c(O)c1,,,,MT-4,>42 µM
CCN1C(C)C(=O)Nc2ccc(Cl)cc2S1(=O)=O,,,IIIB,MT-4,≥200 µM
COc1cccc(C=Nc2nsc3ccccc23)c1O,,,IIIB,MT-4,>6 µM
CC(=O)Nc1cccc2c1nc(-c1c(F)cccc1F)n2Cc1c(F)cccc1F,,RT-V108I,,MT-4,2.82 µM
Cc1cn([C@H]2C[C@H](N=[N+]=[N-])[C@@H](CO)O2)c(=O)[nH]c1=O,,,IIIB,MT-2,0.11 µM
O=C1/C(=C\c2cc(O)c(O)c(O)c2)Cc2ccccc21,,,,MT-4,>16 µM
Cc1cn([C@H]2C[C@H](N=[N+]=[N-])[C@@H](CO)O2)c(=O)[nH]c1=O,,,LAI,CEM + CEM-SS,0.006 µM
Nc1cccc2c1ncn2[C@@H]1O[C@H](CO)[C@@H](O)[C@@H]1O,,,IIIB,MT-4,>125 µg/mL
C1CNCCNCCCN[C@H]([C@@H]2CNCCCNCCNCCCN2)CNC1,,,HE,MT-4,0.29 µM
O=[N+]([O-])c1ccc(/C=N/c2nc3ccc(F)cc3s2)cc1,,,IIIB,MT-4,>100 µM
CC(C)=CCN1Cc2cccc3[nH]c(=S)n(c23)C[C@@H]1C,,,IIIB (BI-RG-587-RS),MT-2,6.3 µM
C=CCNc1ncnc2c1ncn2C[C@@H](C)OCP(=O)(O)O,,,IIIB,CEM,12 ± 2.8 µg/mL
CC1NS(=O)(=O)c2cc(Cl)ccc2NC1=O,,,IIIB,MT-4,>200 µM
Fc1cccc(F)c1Cn1c(-c2c(F)cccc2F)nc2c(Br)cccc21,,RT-K103N,,MT-4,10.2 µM
CC(C)=CCN1Cc2cccc3[nH]c(=S)n(c23)C[C@@H]1C,,RT-L100I,TIBO-resistant L100I (RT-L100I),MT-4,47.2 µM
Nc1ccn([C@H]2CC[C@@H](CO)O2)c(=O)n1,,,IIIB,MT-2,0.94 µM
O=C(O)c1ccc2ccc(/C=C/c3cc(O)c(O)c(O)c3)nc2c1O,,,,MT-4,1.2 µM
C1CNCCNCCCNCCNC1,6 d,,IIIB,MT-4,>67.9 µM
Nc1cccc2c1nc(-c1c(F)cccc1F)n2Cc1c(F)cccc1F,,RT-L100I,,MT-4,0.3 µM
CC(C)=CCN1C(C)C(=O)Nc2ccc(Cl)cc2S1(=O)=O,,,IIIB,MT-4,0.8 µM
O=C1C(=Cc2ccc(Cl)c(Cl)c2)CCCC1=Cc1ccc(Cl)c(Cl)c1,,,,MT-4,>120 µM
COc1c(O)c(Cl)c2c(c1OC)-c1c(c(Cl)c(O)c(OC)c1OC)C[C@H](C)[C@H](C)C2,,,IIIB,MT-4,1.42 µM
CN(C)CCCNc1nc(N)nc2c1ncn2CCOCP(=O)(O)O,,,IIIB,MT-4,6.12 µg/mL
C1CNCCNCC(CCOCCOCCC2CNCCNCCCNCCNC2)CNCCNC1,4 d,,IIIB,MT-4,3.18 µM
Nc1nc(NCCc2ccccc2)c2ncn(CCOCP(=O)(O)O)c2n1,,,IIIB,MT-4,9.9 µg/mL
COc1c(O)c(I)c2c(c1OC)-c1c(c(I)c(O)c(OC)c1OC)C[C@H](C)[C@H](C)C2,,RT-L100I,TIBO-resistant L100I (RT-L100I),MT-4,0.66 µM
COC(=O)c1cccc2c1nc(-c1c(F)cccc1F)n2Cc1c(F)cccc1F,,RT-Y188H,,MT-4,0.26 µM

For reference, 3 entries again:

compound | conditions | changes | strain or isolate | cell line | result
Nc1ccn([C@H]2CC[C@@H](CO)O2)c(=O)n1 |  |  | IIIB | MT-2 | 0.94 µM
Cc1cccc(C)c1OCC(=O)N[C@@H](Cc1ccccc1)[C@@H](O)C[C@H](Cc1ccccc1)NC(=O)[C@H](C(C)C)N1CCCNC1=O |  |  | IIIB | MT-4 | 0.033 µM
COC(=O)c1cccc2c1nc(-c1c(F)cccc1F)n2Cc1c(F)cccc1F |  | RT-Y188H |  | MT-4 | 0.26 µM